Compound potency records, mixed from different reports. Data source: NIAID ChemDB in PubChem.

Shared fields: growth or infection tests; organism: Mycobacterium tuberculosis

a–b is a range or a potency band. Blank or dashed fields: not listed here. MIC bound: limit read from a one-dose screen. A number after MIC or MFC names an inhibition level or a share of isolates. Percent inhibition refers to the dose given; in toxicity tests it is the harm to the cells. Neighbouring rows are from separate reports. ECn: concentration that inhibits the pathogen or its effect by n%.

structure	method	strain or isolate	dose	read-out	value
O=C(Nc1ccccc1)N1CCc2c(c(-c3ccccc3)nn2Cc2cn(-c3ccc4c(c3)OCO4)nn2)C1	visual reading	H37Rv	-	MIC	192 µM
CCCCSc1cc(C(N)=S)cc(Br)n1	-	H37Rv	-	MIC	125 µM
CNC(=O)[C@@H](C)[C@@H]1NC(=O)/C(=C(O)/C=C/C(C)=C/[C@@H](C)[C@@H]2O[C@]3(C)O[C@@H](C=C[C@]34CO4)[C@@H]2C)C1=O	resazurin	H37Rv	-	MIC90	200 µg/mL
O=C(Nc1ccccc1)N1CCc2c(c(-c3ccccc3)nn2Cc2cn(-c3ccc(Cl)cc3Cl)nn2)C1	visual reading	H37Rv	-	MIC	184 µM
Cc1ccc(/C=C/C(=O)Oc2ccc(/C=C3\CCC/C(=C\c4ccc(OC(=O)/C=C/c5ccc(C)cc5)cc4)C3=O)cc2)cc1	-	H37Rv	12.5 µg/mL	inhibition	0%
CC(C)=NNC(=O)CCCCCC(=O)O	-	H37Rv	-	MIC	200 µg/mL
CCC(C)COC(=O)Nc1cccc(Cl)c1	BACTEC	H37Rv	12.5 µg/mL	inhibition	97%
CCCCCCCCSc1cc(C(N)=S)cc(SCCCCCC)n1	-	H37Rv	-	MIC	125 µM
O=C(N/N=C/c1ccc([N+](=O)[O-])o1)N1CCCC1	-	-	-	MIC	10 µg/mL
CC1=Nn2c(nc3sc4c(c3c2=O)CCCC4)SC1	resazurin	H37Rv	6.25 µg/mL	inhibition	14%
NC(CCC(=O)O)CCC(=O)O	-	H37Rv	-	MIC	>1000 µg/mL
COc1ccc(CN=C2NC(=O)/C(=C/c3ccccc3Cl)N2)cc1	-	H37Rv	12.5 µg/mL	inhibition	8%
CN(C)CC1CCC/C(=C\c2ccc(OC(=O)/C=C/c3ccc(Cl)cc3)cc2)C1=O	-	H37Rv	-	EC50	<12.5 µg/mL
O=C(NCc1ccc(N2CCN(Cc3ccccc3)CC2)cc1)c1ccc([N+](=O)[O-])o1	-	H37Rv	-	MIC	0.012 µg/mL
NC(=S)NNC(=S)S	-	PZA-R	-	MIC	12.5 µg/mL
CCCCCCCSc1cc(C(N)=S)cc(SCCCCCC)n1	-	H37Rv	-	MIC	60 µM
CO[C@H]1/C=C/O[C@@]2(C)Oc3c(C)c(O)c4c(O)c(c5[nH]cnc5c4c3C2=O)NC(=O)/C(C)=C\C=C\[C@H](C)[C@H](O)[C@@H](C)[C@@H](O)[C@@H](C)[C@H](OC(C)=O)[C@@H]1C	BACTEC	H37Rv	-	MIC	1.56 µg/mL
O=C1NC(=NCc2ccc(F)cc2)N/C1=C\c1c(Cl)cccc1Cl	-	H37Rv	12.5 µg/mL	inhibition	5%
Cc1c(C(N)=O)sc(NC(=O)c2c(F)c(F)c(F)c(F)c2F)c1C(=O)O	-	-	-	MIC	78.4 µM
O=C(/C=C/c1ccc(Br)cc1)Oc1ccc(/C=C2\CCCCC2=O)cc1	-	H37Rv	-	EC50	>12.5 µg/mL
O=C1c2cc(F)ccc2-n2c1nc1ccc(F)cc1c2=O	-	MDR 10038	-	MIC	1 µg/mL
NC(=O)c1c(NC(=O)c2c(F)c(F)c(F)c(F)c2F)sc2c1CCC2	-	-	-	MIC	10.6 µM
CC(=O)c1ccc(O)c(-c2csc(N/N=C(\C)c3ccncc3)n2)c1	resazurin	H37Rv (ATCC 27294)	-	EC50	>100 µg/mL
O=C1c2cc(Cl)ccc2-n2c1nc1ccccc1c2=O	-	H37Rv	-	MIC	<0.2 µg/mL
COc1cc(OC)c(/C=N/Nc2cc(C)c3ccc(OC)cc3n2)c(OC)c1	BACTEC	H37Rv	12.5 µg/mL	inhibition	6%
O=C(Nc1ccccc1)N1CCc2c(c(-c3ccccc3)nn2Cc2cn(-c3ccc(I)cc3)nn2)C1	visual reading	H37Rv	-	MIC	166 µM
CC(=O)c1ccc(O)c(-c2csc(N/N=C(\C)c3cccnc3)n2)c1	resazurin	H37Rv (ATCC 27294)	-	EC90	>100 µg/mL
O=C1NC(=Nc2ccccc2Cl)N/C1=C\c1c(Cl)cccc1Cl	-	H37Rv	-	MIC	>6.25 µg/mL
CCCCCCSc1cc(C(N)=S)cc(SCC)n1	-	H37Rv	-	MIC	30 µM
O=C([O-])[C@H]([O-])[C@@H]([O-])C(=O)[O-].O=C([O-])[C@H]([O-])[C@@H]([O-])C(=O)[O-].[Na+].[Na+].[Na+].[Na+].[O]=[V+2].[O]=[V+2]	BACTEC	H37Rv	12.5 µg/mL	inhibition	1%
CO[C@H]1/C=C/O[C@@]2(C)Oc3c(C)c(O)c4c(O)c(c(N5CCN(Cc6c(C)cc(C)cc6C)CC5)c(O)c4c3C2=O)NC(=O)/C(C)=C\C=C\[C@H](C)[C@H](O)[C@@H](C)[C@@H](O)[C@@H](C)[C@H](OC(C)=O)[C@@H]1C	-	H37Rv	-	MIC	0.03 µg/mL
CC1(C)CCC(NC(=O)c2cc3c(C#N)ccnc3[nH]2)CC1	resazurin	H37Rv	-	MIC90	0.051 µg/mL
CCC(NCNC(=O)C1=C(O)C2(O)C(=O)C3=C(O)c4c(O)cccc4[C@](C)(O)[C@@H]3C[C@@H]2C(N(C)C)C1=O)C(=O)[O-].[Na+]	BACTEC	H37Rv	-	MIC bound	>12.5 µg/mL
O=C1c2cc([N+](=O)[O-])ccc2-n2c1nc1ccc(Cl)cc1c2=O	-	MDR 10038	-	MIC	<1 µg/mL
O=C1NC(Nc2ccc(Cl)cc2)=N/C1=C\c1c(Cl)cccc1Cl	-	H37Rv	12.5 µg/mL	inhibition	17%
O=C(NCc1ccc(N2CCN(Cc3ccccc3)CC2)nc1)c1ccc([N+](=O)[O-])o1	-	UT26	-	MIC	0.012 µg/mL
NNC(=O)CCCc1c(C(=O)NN)[nH]c2ccccc12	-	H37Rv	-	MIC	60 µg/mL
c1ccc2c(CSc3nc4ccccc4s3)cccc2c1	-	My 331/88	-	MIC	>500 µM
CC[C@H](C)N1CCN(c2cc(=O)c3nc4c(oc3c2)c2c(=O)c3c(O)c(C)c5c(c34)=C(O)[C@@](C)(O/C=C/[C@H](OC)[C@@H](C)[C@@H](OC(C)=O)[C@H](C)[C@H](O)[C@H](C)[C@@H](O)[C@@H](C)/C=C/C=C(/C)C(=O)N2)O5)CC1	-	16 strains (rifampicin-susceptible)	-	MIC50	0.025 µg/mL
O=C(O)CCC(=O)CCC(=O)O	-	H37Rv	-	MIC	>400 µg/mL
CCSc1cc(C(N)=S)cc(Br)n1	-	H37Rv	-	MIC	250 µM
O=[N+]([O-])c1ccc(/C=N/NC(=S)N2CCOCC2)o1	-	-	-	MIC	100 µg/mL
CCSc1cc(C(N)=O)cc(Cl)n1	-	H37Rv	-	MIC	500 µM
COC(=O)c1c(NC(=O)c2ccc(C)cc2)sc2c1CCCCC2	-	-	-	MIC	>20.2 µM
CC[C@H]1OC(=O)[C@H](C)[C@@H](O[C@H]2C[C@@](C)(OC)[C@@H](OC(C)=O)[C@H](C)O2)[C@H](C)[C@@H](O[C@@H]2O[C@H](C)C[C@H](N(C)C)[C@H]2O)C(C)(O)C[C@@H](C)/C(=N\OCCCC2CCCCC2)[C@H](C)[C@@H](O)[C@]1(C)O	-	2	-	MIC	3.13 µg/mL
Cc1ccc2nc3n(c(=O)c2c1)-c1ccccc1C3=O	-	MDR 10038	-	MIC	1 µg/mL
Cc1ccc(-n2cc(Cn3nc(-c4ccccc4)c4c3CCN(C(=O)Nc3ccccc3)C4)nn2)cc1	visual reading	H37Rv	-	MIC	25.53 µM
O=C(O)CCC(CCC(=O)O)=NNC(=O)c1ccccc1	-	H37Rv	-	MIC	100 µg/mL
c1ccc2[nH]c(SCc3ccncc3)nc2c1	-	My 331/88	-	MIC	500 µM
O=C1/C(=C/c2ccc(OC(=O)c3ccc(Cl)cc3)cc2)CCC/C1=C\c1ccc(OC(=O)c2ccc(Cl)cc2)cc1	-	H37Rv	12.5 µg/mL	inhibition	0%
CN1CCN(C(=S)N/N=C/c2ccc([N+](=O)[O-])o2)CC1	-	-	-	MIC	100 µg/mL
O=c1/c(=C\c2ccccc2)sc2n1C(c1ccccc1)C1(O)CCCCC1N=2	BACTEC	H37Rv	12.5 µg/mL	inhibition	11%
CN(C)CC1CCC/C(=C\c2ccc(OC(=O)c3ccccc3)cc2)C1=O	-	H37Rv	-	EC50	<12.5 µg/mL
Cc1ccc(-c2cnnc(N3CCC(c4ccccc4)C3)n2)o1	resazurin	H37Rv	-	MIC	40.5 µM
NNC(=O)CCCCC(=O)O	-	H37Rv	-	MIC	60–100 µg/mL
c1ccc(CSc2ncn[nH]2)nc1	-	My 331/88	-	MIC	>1000 µM
Cc1cccc2nc3n(c(=O)c12)-c1ccccc1C3=O	-	MDR 10038	-	MIC	2 µg/mL
NC(=O)c1c(NC(=O)c2c(F)c(F)c(F)c(F)c2F)sc2c1CCCCC2	-	-	-	MIC	15.3 µM
CN1CCN(c2cc3c(cc2F)C(=O)c2nc4cc(F)ccc4c(=O)n2-3)CC1	-	H37Rv	-	MIC	>5 µg/mL
O=C1CCCC/C1=C\c1ccc(OC(=O)c2ccc(Cl)cc2)cc1	-	H37Rv	-	EC50	<12.5 µg/mL
CCC(C)N1CCN(c2cc(=O)c3nc4c(oc3c2)c2c(=O)c3c(O)c(C)c5c(c34)=C(O)[C@@](C)(O/C=C/[C@H](OC)[C@@H](C)[C@@H](OC(C)=O)[C@H](C)[C@H](O)[C@H](C)[C@@H](O)[C@@H](C)/C=C/C=C(/C)C(=O)N2)O5)CC1	-	6 strains (rifampicin-resistant)	-	MIC50	≤0.0125 µg/mL
O=S1(=O)OC(c2cc(Br)c(O)c(Br)c2)(c2cc(Br)c(O)c(Br)c2)c2ccccc21	BACTEC	H37Rv	-	MIC bound	>6.25 µg/mL
O=C(Nc1ccccc1)N1CCc2c(c(-c3ccccc3)nn2Cc2cn(-c3ccc(Cl)c(Cl)c3)nn2)C1	visual reading	H37Rv	-	MIC	184 µM
CCOC(=O)Oc1cc2c(ccn2C)c2c1c1ccccc1n2C(=O)OCC	BACTEC	H37Rv	12.5 µg/mL	inhibition	-48%
NNC(=O)CCC1CCC(=O)N1	-	H37Rv	-	MIC	>50 µg/mL
Nc1cccc2c1Oc1ccccc1O2	resazurin	H37Rv	6.25 µg/mL	inhibition	23%
CC1(C)CC(N=c2cc3n(-c4ccc(Cl)cc4Cl)c4ccccc4nc-3cc2Nc2ccc(Cl)cc2Cl)CC(C)(C)N1	-	TBRP171 (INH RMP-resistant)	-	MIC	0.06 µg/mL
Cc1ccc(S(=O)(=O)/C=C/c2ccc([N+](=O)[O-])o2)cc1	resazurin	H37Rv	-	MIC bound	>6.25 µg/mL
NC(=S)c1cc(SCc2ccccn2)ccn1	-	My 331/88	-	MIC	250 µM
O=c1c2cc(OCO)ccc2[nH]c2cc3c(=O)c4cc(OCO)ccc4[nH]c3cc12	BACTEC	H37Rv	-	MIC bound	>12.5 µg/mL
CCN(CC)C(=S)N/N=C/c1ccc([N+](=O)[O-])o1	-	-	-	MIC	100 µg/mL
CC1CCCCN1/N=N/c1nc2c([nH]1)c(=O)n(C)c(=O)n2C	resazurin	H37Rv	6.25 µg/mL	inhibition	-3%
COc1ccc(-n2cc(Cn3nc(-c4ccccc4)c4c3CCN(C(=O)Nc3ccccc3)C4)nn2)cc1OC	visual reading	H37Rv	-	MIC	186.7 µM
COc1c2occc2c(OC)c2c(=O)cc(/C=C/c3cccnc3)oc12	BACTEC	H37Rv	-	MIC bound	>12.5 µg/mL
NC[C@H]1O[C@H](O[C@H]2[C@H](O)[C@@H](O[C@H]3O[C@H](CO)[C@@H](O)[C@H](N)[C@H]3O)[C@H](N)C[C@@H]2N)[C@H](O)[C@@H](O)[C@@H]1O	-	Isolate CKN64-301 (rrs A1401G mutation)	-	MIC	>80 µg/mL
CC(=O)c1c(O)cc2c(c1O)C1CC(C)(CCC1=C(C)C)O2	BACTEC	H37Rv	12.5 µg/mL	inhibition	-13%
O=C(Nc1ccccc1)N1CCc2c(c(-c3ccccc3)nn2Cc2cn(-c3ccc([N+](=O)[O-])cc3)nn2)C1	visual reading	H37Rv	-	MIC	192.1 µM
Cc1ccc(NC(=O)/C(CC(=O)c2c[n+](=O)c3ccccc3n2[O-])=N/NC(=O)C[n+]2ccccc2)cc1.[Cl-]	BACTEC	H37Rv	-	MIC bound	>12.5 µg/mL
NC(=S)NN=C(CCC(=O)O)CCC(=O)O	-	H37Rv	-	MIC	50 µg/mL
Cc1ccnc2c1ccc1c(C)ccnc12	BACTEC	H37Rv	12.5 µg/mL	inhibition	99%
c1ccc2oc(SCc3ccncc3)nc2c1	-	My 331/88	-	MIC	125 µM
NNC(=O)CNc1ccc(F)c(Cl)c1	BACTEC	H37Rv	-	MIC bound	>12.5 µg/mL
Cc1ccc2nc(SCc3ccncc3)[nH]c2c1	-	My 331/88	-	MIC	250 µM
COC1OC(CO)C(O)C2NCSC12.Cl	BACTEC	H37Rv	12.5 µg/mL	inhibition	0%
CC1CN(c2cc3c(cc2F)C(=O)c2nc4ccccc4c(=O)n2-3)CCN1C(=O)OC(C)(C)C	-	MDR 10038	-	MIC	>5 µg/mL

Again, the opening 4 rows:

O=C(Nc1ccccc1)N1CCc2c(c(-c3ccccc3)nn2Cc2cn(-c3ccc4c(c3)OCO4)nn2)C1 ; method: visual reading ; strain or isolate: H37Rv ; read-out: MIC ; value: 192 µM
CCCCSc1cc(C(N)=S)cc(Br)n1 ; strain or isolate: H37Rv ; read-out: MIC ; value: 125 µM
CNC(=O)[C@@H](C)[C@@H]1NC(=O)/C(=C(O)/C=C/C(C)=C/[C@@H](C)[C@@H]2O[C@]3(C)O[C@@H](C=C[C@]34CO4)[C@@H]2C)C1=O ; method: resazurin ; strain or isolate: H37Rv ; read-out: MIC90 ; value: 200 µg/mL
O=C(Nc1ccccc1)N1CCc2c(c(-c3ccccc3)nn2Cc2cn(-c3ccc(Cl)cc3Cl)nn2)C1 ; method: visual reading ; strain or isolate: H37Rv ; read-out: MIC ; value: 184 µM